Results of unrelated studies side by side (data: NIAID ChemDB).

All rows: tests on isolated targets; organism: HIV-1; protein: Protease; endpoint: IC50

Neighbouring rows are from separate reports.

COCCNC(=O)[C@@H](NC(=O)[C@H](Cc1ccccc1)C[C@H](O)[C@H](Cc1ccccc1)NC(=O)OC(C)(C)C)C(C)C ; method: fluorescence ; result: 0.002 µM
CC(C)[C@@H](NC(=O)N(C)Cc1cncs1)C(=O)N[C@@H](Cc1ccccc1)[C@H](O)CN1CCN(Cc2ccccc2)C[C@H]1C(=O)NC(C)(C)C ; method: substrate cleavage ; result: 0.12 µM
COCCNC(=O)[C@@H](NC(=O)[C@H](Cc1cccc(OC)c1)C[C@H](O)[C@H](Cc1ccccc1)NC(=O)OC(C)(C)C)C(C)C ; method: fluorescence ; result: 0.001 µM
COc1ccc(C2C3(CO)C4N(C(=O)OC(C)(C)C)C5C2(CO)C2N(C(=O)OC(C)(C)C)C3C4(CO)C(c3ccc(OC)cc3)C52CO)cc1 ; method: absorbance ; result: >50 µM
COC(=O)[C@]12CCC(C)(C)C[C@H]1C1=CC[C@@H]3[C@@]4(C)CC[C@H](O)C(C)(C)[C@@H]4CC[C@@]3(C)[C@]1(C)CC2 ; method: HPLC ; result: 20 µM
COc1ccc(C2C3(CO)C4N(C(=O)Oc5ccccc5)C5C2(CO)C2N(C(=O)Oc6ccccc6)C3C4(CO)C(c3ccc(OC)cc3)C52CO)cc1 ; method: absorbance ; result: >50 µM
COC(=O)[C@]12CCC(C)(C)C[C@H]1C1=CC[C@@H]3[C@@]4(C)CC[C@@H](NC(=O)CCCCC(=O)OC[C@H]5O[C@@H](n6cc(C)c(=O)[nH]c6=O)C[C@@H]5N=[N+]=[N-])C(C)(C)[C@@H]4CC[C@@]3(C)[C@]1(C)CC2 ; method: HPLC ; result: 8 µM
Cc1ccccc1CNC(=O)[C@H]1N(C(=O)[C@@H](O)[C@H](Cc2ccccc2)NC(=O)c2ccccc2NC(=O)OCc2ccccc2)CSC1(C)C ; method: HPLC ; result: <5 µM
CC(C)C[C@H](NC(=O)OC(C)(C)C)C(=O)N[C@@H](Cc1ccccc1)C(=O)NC[C@H]1O[C@H](CNC(=O)[C@H](Cc2ccccc2)NC(=O)[C@@H](CC(C)C)NC(=O)OC(C)(C)C)[C@@H](O)[C@@H]1O ; result: >2 µM
CC(C)(C)NC(=O)[C@@H]1CSCN1C(=O)[C@@H](O)[C@H](Cc1ccccc1)NC(=O)[C@H](CS(C)(=O)=O)NC(=O)COc1cccc(C(=O)N2CCCCC2)c1 ; result: <0.05 µM
Cc1ccccc1CNC(=O)[C@H]1N(C(=O)[C@@H](O)[C@H](Cc2ccccc2)NC(=O)c2ccccc2C(=O)NCc2cccnc2)CSC1(C)C ; method: HPLC ; result: <5 µM
CCOCCNC(=O)[C@@H](NC(=O)[C@H](Cc1ccc(OC)c(OC)c1OC)C[C@H](O)[C@H](Cc1ccccc1)NC(=O)OC(C)(C)C)C(C)C ; method: fluorescence ; result: 0.008 µM
CC(C)[C@H](NC(=O)OC(C)(C)C)C(=O)N[C@@H](Cc1ccccc1)C(=O)NC[C@H]1O[C@H](CNC(=O)[C@H](Cc2ccccc2)NC(=O)[C@H](NC(=O)OC(C)(C)C)C(C)C)[C@@H](O)[C@@H]1O ; result: >2 µM
CC1(C)S[C@H]([C@H](NC(=O)Cc2ccccc2)C(=O)NCc2ccccc2)N[C@H]1C(=O)NCCNC(=O)[C@@H]1N[C@@H]([C@H](NC(=O)Cc2ccccc2)C(=O)NCc2ccc(C(=O)O)cc2)SC1(C)C ; result: 0.0045 µM
CC(C)CC(=O)N[C@H](C(=O)N[C@H](C(=O)N[C@H]([C@@H](O)CC(=O)N[C@@H](C)C(=O)N[C@H]([C@@H](O)CC(=O)O)C(F)(F)F)C(F)(F)F)C(C)C)C(C)C ; method: fluorescence ; result: >150 µM
COC(=O)[C@]12CCC(C)(C)C[C@H]1C1=CC[C@@H]3[C@@]4(C)CC[C@H](OC(=O)CCCCC(=O)Oc5c(OC)ccc6c5[C@@]57CCC(C)[C@@H](C6)C5=C(OC)C(OC(C)=O)C(OC(C)=O)C7)C(C)(C)[C@@H]4CC[C@@]3(C)[C@]1(C)CC2 ; method: HPLC ; result: >100 µM
NC(=O)C[C@H](NC(=O)OCc1ccccc1)C(=O)N[C@@H](Cc1ccccc1)[C@H](O)C(=O)N1CCC[C@H]1C(N)=O ; result: >0.05 µM
CC(C)(C)NC(=O)[C@H]1N(C(=O)[C@@H](O)[C@H](Cc2ccccc2)NC(=O)c2ccccc2C(=O)NCc2ccncc2)CSC1(C)C ; method: HPLC ; result: >5 µM
O=C(CO)Nc1ccc(C(=O)O)cc1 ; method: substrate cleavage ; result: >10 µM
COc1cccc2cc(C(=O)N[C@@H](Cc3ccccc3)[C@H](O)C(=O)N3CSC(C)(C)[C@H]3C(=O)NC(C)(C)C)oc12 ; method: HPLC ; result: >5 µM
CC(C)C[C@H](NC(=O)OC(C)(C)C)C(=O)N[C@@H](Cc1ccccc1)C(=O)NC[C@@H]1O[C@@H](CNC(=O)[C@H](Cc2ccccc2)NC(=O)[C@@H](CC(C)C)NC(=O)OC(C)(C)C)[C@@H](O)[C@@H]1O ; result: >2 µM
CC(C)[C@@H](NC(=O)N(C)Cc1cncs1)C(=O)N[C@@H](Cc1ccccc1)[C@H](O)CN1CCN(Cc2cncs2)C[C@H]1C(=O)NC(C)(C)C ; method: substrate cleavage ; result: 0.097 µM
CC(C)(C)NC(=O)[C@@H]1CSCN1C(=O)[C@@H](O)[C@H](Cc1ccccc1)NC(=O)[C@H](CS(C)(=O)=O)NC(=O)COc1cccc2ccccc12 ; result: <0.05 µM
CC(C)[C@H](NC(=O)[C@H](C)NC(=O)OCc1ccccc1)C(=O)N[C@@H](Cc1ccccc1)[C@@H](O)[C@H](O)[C@H](Cc1ccccc1)NC(=O)[C@@H](NC(=O)[C@H](C)NC(=O)OCc1ccccc1)C(C)C ; method: fluorescence ; result: 0.004 µM
COC(=O)[C@]12CCC(C)(C)C[C@H]1C1=CC[C@@H]3[C@@]4(C)CC/C(=N\OC(=O)CCCCC(=O)OC[C@H]5O[C@@H](n6cc(C)c(=O)[nH]c6=O)C[C@@H]5N=[N+]=[N-])C(C)(C)[C@@H]4CC[C@@]3(C)[C@]1(C)CC2 ; method: HPLC ; result: 16 µM
CCCC[C@@H](CN[C@@H](CCC(N)=O)C(=O)N[C@@H](CCCN=C(N)N)C(N)=O)NC(=O)[C@H](CCCC)NC(=O)C(NC(=O)C(NC(C)=O)[C@@H](C)O)[C@@H](C)CC ; changes: PR-D30N ; method: HPLC ; result: >2.17 µM
COc1ccccc1C[C@H](C[C@H](O)[C@H](Cc1ccccc1)NC(=O)OC(C)(C)C)C(=O)N[C@H](C(=O)NCCN(C)C)C(C)C ; method: fluorescence ; result: 0.01 µM
COC(=O)[C@H](CC(C)C)NC(=O)[C@H](Cc1ccccc1)NC(=O)[C@@H]1O[C@@H](C(=O)N[C@@H](Cc2ccccc2)C(=O)N[C@@H](CC(C)C)C(=O)OC)[C@@H](O)[C@@H]1O ; result: >2 µM
CC(C)(CO)NC(=O)[C@@H]1CSCN1C(=O)[C@@H](O)[C@H](Cc1ccccc1)NC(=O)[C@H](CS(C)(=O)=O)NC(=O)COc1cccc2ccccc12 ; result: <0.05 µM
CO[C@@H]1CO[C@H]2[C@@H]1OC[C@@H]2OC(=O)N[C@@H](Cc1ccccc1)[C@H](O)CN(CC(C)C)S(=O)(=O)c1ccc(N)cc1 ; method: fluorescence ; result: 0.00043 µM
CC(=O)N1C2C3(CO)C(c4ccccc4)C4(CO)C1C1(CO)C(c5ccccc5)C2(CO)C3N(C(C)=O)C41 ; method: absorbance ; result: >50 µM
COC(=O)[C@]12CCC(C)(C)C[C@H]1C1=CC[C@@H]3[C@@]4(C)CC/C(=N\O)C(C)(C)[C@@H]4CC[C@@]3(C)[C@]1(C)CC2 ; method: HPLC ; result: 9.5 µM
O=C(Cc1ccccc1)N1C2C3(CO)C(c4ccccc4)C4(CO)C1C1(CO)C(c5ccccc5)C2(CO)C3N(C(=O)Cc2ccccc2)C41 ; method: absorbance ; result: ~50 µM
CC(=O)N[C@@H](Cc1ccc(F)cc1)C(=O)N[C@H](C(=O)N[C@@H](Cc1ccccc1)[C@@H](O)C(=O)N[C@H]1Cc2ccc(cc2)OCCCNC(=O)[C@H](C(C)C)NC1=O)C(C)C ; method: fluorescence ; result: 0.003 µM
COC(=O)N1C2C3(CO)C(c4ccc(OC)cc4)C4(CO)C1C1(CO)C(c5ccc(OC)cc5)C2(CO)C3N(C(=O)OC)C41 ; method: absorbance ; result: >50 µM
CC(C)[C@H](NC(=O)[C@H](C)NC(=O)OCc1ccccc1)C(=O)N[C@@H](Cc1ccccc1)[C@@H](O)C(=O)N[C@H]1Cc2ccc(cc2)OCCCNC(=O)[C@H](C(C)C)NC1=O ; method: fluorescence ; result: 0.01 µM
CC1(C)CC[C@]2(C(=O)O)CC[C@]3(C)C(=CCC4[C@@]5(C)CC/C(=N\OC(=O)CCCCC(=O)O)C(C)(C)C5CC[C@]43C)C2C1 ; method: HPLC ; result: 5.5 µM
Cc1ccccc1CNC(=O)[C@H]1N(C(=O)[C@@H](O)[C@H](Cc2ccccc2)NC(=O)c2ccccc2C(=O)NCc2ccccn2)CSC1(C)C ; method: HPLC ; result: <5 µM
CC(C)(C)OC(=O)[C@@H]1CCCN1C(=O)[C@@H](O)[C@H](Cc1ccccc1)NC(=O)[C@H](CC(N)=O)NC(=O)OCc1ccccc1 ; result: <5 µM
CC(C)(C)OC(=O)CNC(=O)C(NC(=O)Cc1ccccc1)[C@@H]1N[C@@H](C(=O)NCCNC(=O)[C@@H]2N[C@@H](C(NC(=O)Cc3ccccc3)C(=O)NCc3ccccc3)SC2(C)C)C(C)(C)S1 ; result: 0.0019 µM
COCCNC(=O)[C@@H](NC(=O)[C@H](Cc1ccc(OC)cc1OC)C[C@H](O)[C@H](Cc1ccccc1)NC(=O)OC(C)(C)C)C(C)C ; method: fluorescence ; result: 0.013 µM
C=CC[C@H](NC(=O)[C@H](Cc1ccccc1)NS(=O)(=O)N1CCOCC1)C(=O)N[C@@H](CC1CCCCC1)[C@@H](O)C[C@H](C(=O)NCCCC)C(C)C ; method: HPLC ; result: 0.015 µM
NC(=O)C[C@H](NC(=O)[C@@H](N)Cc1ccccc1)C(=O)N[C@@H](Cc1ccccc1)[C@H](O)C(=O)NCC1CCCCC1 ; result: <1000 µM
Cc1cn([C@H]2C[C@H](N=[N+]=[N-])[C@@H](COC(=O)CCCCC(=O)O[C@H]3CC[C@]4(C)[C@H]5CC=C6[C@@H]7CC(C)(C)CC[C@]7(C(=O)O)CC[C@@]6(C)[C@]5(C)CC[C@H]4C3(C)C)O2)c(=O)[nH]c1=O ; method: HPLC ; result: 3.2 µM

Again, the opening 4 rows:

smiles | changes | method | result
COCCNC(=O)[C@@H](NC(=O)[C@H](Cc1ccccc1)C[C@H](O)[C@H](Cc1ccccc1)NC(=O)OC(C)(C)C)C(C)C |  | fluorescence | 0.002 µM
CC(C)[C@@H](NC(=O)N(C)Cc1cncs1)C(=O)N[C@@H](Cc1ccccc1)[C@H](O)CN1CCN(Cc2ccccc2)C[C@H]1C(=O)NC(C)(C)C |  | substrate cleavage | 0.12 µM
COCCNC(=O)[C@@H](NC(=O)[C@H](Cc1cccc(OC)c1)C[C@H](O)[C@H](Cc1ccccc1)NC(=O)OC(C)(C)C)C(C)C |  | fluorescence | 0.001 µM
COc1ccc(C2C3(CO)C4N(C(=O)OC(C)(C)C)C5C2(CO)C2N(C(=O)OC(C)(C)C)C3C4(CO)C(c3ccc(OC)cc3)C52CO)cc1 |  | absorbance | >50 µM

ICn: concentration for n% inhibition. An empty or dashed field is not shown.